Anti-infective test results gathered from many reports (values: NIAID ChemDB through PubChem).

Common to all: whole-cell or culture tests; organism: HIV-1; read-out: EC50

Conditions beyond the fields shown may differ between rows. ECn: concentration that inhibits the pathogen or its effect by n%. Blank or dashed fields: not listed here.

{"smiles": "CN[C@H]1CO[C@@H]2OCC[C@H](OC(=O)N[C@@H](Cc3cccc(OC)c3)[C@H](O)CN(CC(C)C)S(=O)(=O)c3ccc4nc(NC(C)C)sc4c3)[C@@H]21", "cell line": "MT-4", "method": "p24 / luminescence", "changes": "L10I L33I M36I M46I I54V K55R I62V L63P A71V G73S V82T L90M I93L", "strain": "NL4-3", "value": "0.024 µM"}
{"smiles": "S=C(NCCc1cccs1)Nc1ccc(Br)cn1", "cell line": "HT4 + HeLa", "method": "plaque count", "changes": "RT-M41L L210W T215Y", "strain": "M709-1 Clinical isolate NRTI-resistant", "value": "0.01 µM"}
{"smiles": "CC[C@@H](C)[C@H](C(=O)O)N1C[C@H](CN2CCC(c3cc(Cc4ccc(OCc5ccccc5)cc4)nn3CC)CC2)[C@@H](c2cccc(F)c2)C1", "setting": "50% human serum", "cell line": "HeLa", "method": "β-galactosidase", "strain": "BaL", "value": "<0.1 µM"}
{"smiles": "O=S(=O)(c1ccccc1)c1ccccc1", "cell line": "CEM + CEM-SS", "method": "cytopathic effect / XTT", "changes": "RT-Y181C", "strain": "UC82-R (RT-Y181C)", "value": ">114 µM"}
{"smiles": "CCc1c(CC2CCCCC2)nc(SCC(=O)c2ccccc2)[nH]c1=O", "cell line": "C8166", "method": "p24 / ELISA", "changes": "V108I", "strain": "NL4-3", "value": "0.01276 µM"}
{"smiles": "Cc1ccc(S(=O)(=O)N(CC(C)C)C[C@@H](O)[C@H](Cc2ccccc2)NC(=O)O[C@H]2CO[C@H]3OCC[C@H]32)cc1", "cell line": "MT-2", "method": "p24 / ELISA", "changes": "I401T", "strain": "IIIB", "value": "0.008 µM"}
{"smiles": "CC[C@@H](C)[C@H](C(=O)O)N1C[C@H](CN2CCC(c3cc(Cc4ccc(-c5ccccc5)cc4)nn3CC)CC2)[C@@H](c2cccc(F)c2)C1", "cell line": "HeLa", "method": "β-galactosidase", "strain": "BaL", "value": "<0.0012 µM"}
{"smiles": "CC(=O)N1CCC(C(=O)N(CCCN2CCC(Cc3ccc(C(N)=O)cc3)CC2)c2ccc(C)c(Cl)c2)CC1", "cell line": "U87 (CD4+ CCR5+) + U87", "method": "luciferase", "strain": "R5 subtype E_1 recombinant", "value": "0.0015 µM"}
{"smiles": "COC(=O)N[C@H](C(=O)N[C@@H](Cc1ccccc1)[C@@H](O)CN(Cc1ccc(-c2ccccn2)cc1)NC(=O)[C@@H](NC(=O)OC)C(C)(C)C)C(C)(C)C", "cell line": "PBMC", "method": "p24 / luminescence", "strain": "BaL", "value": "0.0037 µM"}
{"smiles": "Cc1c(C#N)cc(C(F)F)cc1Oc1c(C(F)(F)C(F)F)ncn(Cc2cc(F)c[nH]c2=O)c1=O", "method": "luminescence", "changes": "Y181C", "value": "0.0211 µM"}
{"smiles": "CCOc1ccc(Cc2cc(C3CCN(C[C@H]4CN([C@@H](C(=O)O)C(C)C)C[C@@H]4c4cccc(F)c4)CC3)n(CC)n2)cc1", "cell line": "HeLa", "method": "β-galactosidase", "strain": "BaL", "value": "<0.0004 µM"}
{"smiles": "Cn1c2ccccc2c2c1cc(C#N)c(=O)n2-c1ccc([N+](=O)[O-])cc1", "cell line": "HeLa", "method": "luciferase", "changes": "RT-K103N", "strain": "NNRTI-resistant", "value": "0.0115 µM"}
{"smiles": "Cc1ccnc2c1NC(=O)c1cccnc1N2C1CC1", "cell line": "MAGI", "method": "β-galactosidase", "changes": "RT-K101E", "strain": "NNRTI-resistant (RT K101E)", "value": "0.52 µM"}
{"smiles": "CC(C)CN(C[C@@H](O)[C@H](Cc1ccc(F)cc1)NC(=O)O[C@H]1CCO[C@H]2OCC[C@H]21)S(=O)(=O)c1ccc2nc(NC(C)C)sc2c1", "cell line": "PBMC", "method": "p24 / luminescence", "changes": "L63P", "strain": "ERS104pre", "value": "0.0025 µM"}
{"smiles": "CC(C)CN(C[C@@H](O)[C@H](Cc1ccccc1)NC(=O)O[C@H]1CCO[C@H]2OCC[C@H]21)S(=O)(=O)c1ccc2nc(NC3CC3)sc2c1", "cell line": "MT-4", "method": "p24 / luminescence", "changes": "L10F V32I L33F M46L I54M A71V", "strain": "NL4-3", "value": "0.0067 µM"}
{"smiles": "CCCc1cc(=O)oc2c3c(c4c(c12)OC(C)(C)C=C4)O[C@@H](C)[C@H](C)[C@@H]3O", "cell line": "CEM + CEM-SS", "method": "XTT", "changes": "RT-L74V", "strain": "NL4-3", "value": "0.2 µM"}
{"smiles": "Cc1ccnc2c1NC(=O)c1cccnc1N2C1CC1", "cell line": "MAC", "method": "cytopathic effect / XTT", "strain": "BaL", "value": "0.4 µM"}
{"smiles": "CCc1c(C(=O)c2cc(C)cc(C)c2)n(CC2CC=CC2)c(=O)[nH]c1=O", "cell line": "U-937", "method": "cytopathic effect / XTT", "strain": "IIIB", "value": "0.01 µM"}
{"smiles": "Cc1cn([C@H]2C[C@H](N=[N+]=[N-])[C@@H](CO)O2)c(=O)[nH]c1=O", "cell line": "CEM + CEM-SS", "method": "XTT", "changes": "RT-L100I", "strain": "Oxathiin carboxanilide-resistant RT L100I", "value": "0.04 µM"}
{"smiles": "CCN(c1nc(F)ccc1NC(C)(C)C)C1CCN(C(=O)c2cc3cc(NC(=O)N4CCN(C)CC4)ccc3[nH]2)CC1", "cell line": "MT-2", "method": "p24 / ELISA", "changes": "K112M K113E V128I M200I H219P", "strain": "IIIB", "value": "0.0261 µM"}
{"smiles": "Nc1nc(NC2CC2)c2ncn([C@H]3C=C[C@@H](CO)C3)c2n1", "cell line": "HeLa", "method": "luciferase", "changes": "RT-M184V", "strain": "Recombinant", "value": "7.74 µM"}
{"smiles": "COC(=O)N[C@H](C(=O)N[C@@H](Cc1ccccc1)[C@@H](O)CN(Cc1ccc(-c2ccccn2)cc1)NC(=O)[C@@H](NC(=O)OC)C(C)(C)C)C(C)(C)C", "cell line": "MT-4", "method": "p24 / luminescence", "changes": "L10I I15V K20R L24I V32I M36I M46I L63P K70Q V82A I84V L89M", "strain": "NL4-3", "value": ">1 µM"}
{"smiles": "Nc1nc(=O)n([C@@H]2CS[C@H](CO)O2)cc1F", "cell line": "HT4 + HT4 LacZ-1", "method": "plaque count", "changes": "RT-M41L M184V 215Y", "strain": "RTMN(184) (RT M41L M184V T215Y)", "value": ">500 µM"}
{"smiles": "C/C=C/CSc1cc(NC(=S)c2ccsc2C)ccc1Cl", "cell line": "CEM + CEM-SS", "method": "cytopathic effect / XTT", "strain": "RF", "value": "0.1 µM"}
{"smiles": "Cc1cn([C@H]2C[C@H](N=[N+]=[N-])[C@@H](CO)O2)c(=O)[nH]c1=O", "cell line": "MT-2", "method": "ATP", "changes": "8374-P36 GS-8374-resistant", "strain": "IIIB", "value": "0.138 µM"}
{"smiles": "CC(C)=CCN1c2cc(Cl)cc3[nH]c(=S)n(c23)C[C@@H]1C", "cell line": "MT-4", "changes": "RT-K70R K103N", "value": "<1.5 µM"}
{"smiles": "CC(C)=CCN1Cc2cc(Cl)cc3[nH]c(=S)n(c23)C[C@@H]1C", "cell line": "HT4 + HT4 LacZ-1", "method": "plaque count", "strain": "HXB2", "value": "0.11 µM"}
{"smiles": "COc1ccc(S(=O)(=O)N(CC(C)C)C[C@@H](O)[C@H](Cc2ccccc2)NC(=O)O[C@H]2CCO[C@H]3OC[C@H](O)[C@H]32)cc1", "cell line": "MT-4", "method": "p24 / luminescence", "strain": "NL4-3", "value": "0.0035 µM"}
{"smiles": "C#C[C@]1(CO)O[C@@H](n2cnc3c(N)nc(F)nc32)C[C@@H]1O", "cell line": "MT4-GFP", "method": "fluorescence", "changes": "M184V", "strain": "Clinical isolate", "value": "0.00725 µM"}
{"smiles": "CC(C)CN(C[C@@H](O)[C@H](Cc1ccccc1)NC(=O)O[C@H]1CCOC1)S(=O)(=O)c1ccc(N)cc1", "cell line": "MT-4", "method": "p24 / luminescence", "changes": "L10I I15V K20R L24I V32I M36I M46I L63P K70Q V82A I84V L89M", "strain": "NL4-3", "value": ">1 µM"}
{"smiles": "CC[C@H](C)[C@H](C(=O)O)N1C[C@H](CN2CCC(c3cc(Cc4ccc(O)cc4)nn3CC)CC2)[C@@H](c2cccc(F)c2)C1", "cell line": "HeLa", "method": "β-galactosidase", "strain": "BaL", "value": "<0.0004 µM"}
{"smiles": "CO[P@](=O)(c1cc(C)cc(/C=C/C#N)c1)c1c(C(N)=O)[nH]c2ccc(Cl)cc12", "cell line": "H9", "strain": "IIIB", "value": "0.0005 µM"}
{"smiles": "Cc1ccnc2c1NC(=O)c1cccnc1N2C1CC1", "cell line": "HT4 + HT4 LacZ-1", "method": "plaque count", "changes": "RT-Y181C M184V", "strain": "HXB2(181 184) (RT Y181C M184V)", "value": "12.6 µM"}
{"smiles": "CCCc1cc(=O)oc2c3c(c4c(c12)OC(C)(C)C=C4)O[C@H](C)[C@@H](C)[C@@H]3O", "cell line": "PBMC", "method": "RT activity", "strain": "TEKI(SI)", "value": "0.3 µM"}
{"smiles": "CCn1nc(Cc2ccc(C#N)cc2)cc1C1CCN(C[C@H]2CN([C@@H](C(=O)O)C3CCCCC3)C[C@@H]2c2cccc(F)c2)CC1", "setting": "50% human serum", "cell line": "HeLa", "method": "β-galactosidase", "strain": "BaL", "value": "<0.011 µM"}
{"smiles": "Cc1occc1C(=S)Nc1ccc(Cl)c(/C=N/OC(C)(C)C)c1", "cell line": "CEM + CEM-SS", "method": "cytopathic effect / XTT", "changes": "RT-V108I", "strain": "Thiazolobenzimidazole-resistant (RT V108I)", "value": "1.2 µM"}
{"smiles": "N#Cc1cc2[nH]c3ccccc3c2n(-c2ccc([N+](=O)[O-])cc2)c1=O", "cell line": "HeLa", "method": "luciferase", "changes": "RT-M41L V118I M184V", "strain": "Recombinant", "value": "1.15 µM"}
{"smiles": "Cc1ccnc2c1NC(=O)c1cccnc1N2C1CC1", "cell line": "CEM + CEM-SS", "method": "XTT", "changes": "RT-V108I", "strain": "Thiazolobenzimidazole-resistant (RT V108I)", "value": "0.3 µM"}

Repeating the final 5 entries:

smiles,setting,cell line,method,changes,strain,value
CCCc1cc(=O)oc2c3c(c4c(c12)OC(C)(C)C=C4)O[C@H](C)[C@@H](C)[C@@H]3O,-,PBMC,RT activity,-,TEKI(SI),0.3 µM
CCn1nc(Cc2ccc(C#N)cc2)cc1C1CCN(C[C@H]2CN([C@@H](C(=O)O)C3CCCCC3)C[C@@H]2c2cccc(F)c2)CC1,50% human serum,HeLa,β-galactosidase,-,BaL,<0.011 µM
Cc1occc1C(=S)Nc1ccc(Cl)c(/C=N/OC(C)(C)C)c1,-,CEM + CEM-SS,cytopathic effect / XTT,RT-V108I,Thiazolobenzimidazole-resistant (RT V108I),1.2 µM
N#Cc1cc2[nH]c3ccccc3c2n(-c2ccc([N+](=O)[O-])cc2)c1=O,-,HeLa,luciferase,RT-M41L V118I M184V,Recombinant,1.15 µM
Cc1ccnc2c1NC(=O)c1cccnc1N2C1CC1,-,CEM + CEM-SS,XTT,RT-V108I,Thiazolobenzimidazole-resistant (RT V108I),0.3 µM